Measured values from several laboratories, pooled; numbers as filed in NIAID ChemDB.

Common to all: growth or infection tests

Blank or dashed fields: not listed here. MIC50, MIC90 and the like: level of inhibition, or share of isolates inhibited. Zone: diameter of growth inhibition. Percent inhibition refers to the dose given; in toxicity tests it is the harm to the cells. ECn: concentration that inhibits the pathogen or its effect by n%. Lines come from different laboratories, so protocols vary.

| SMILES | organism | strain or isolate | mutations | cell line | method | read-out | tested at | value |
|---|---|---|---|---|---|---|---|---|
| CC(=O)Oc1ccccc1C(=O)Nc1ncc([N+](=O)[O-])s1 | Encephalitozoon intestinalis |  |  | RK-13 |  | inhibition | 0.01 µg/mL | 33.7% |
| Nc1nc2c(ncn2CCOCP(=O)(O)O)c(=O)[nH]1 | Parainfluenza virus | C243 (TYPE 3) |  |  | neutral red | EC50 |  | 5 µg/mL |
| CC(=O)N1CCN(c2ccc(OC[C@H]3CO[C@](Cn4ccnc4)(c4ccc(Cl)cc4Cl)O3)cc2)CC1 | Candida albicans | Isogenic isolate 6 MDR1 (25X) |  |  |  | MIC |  | ≤0.008 µg/mL |
| C#CC[C@@H](C(=O)N[C@H](/C=C/C(=O)OCC)C[C@@H]1CCNC1=O)n1cccc(NC(=O)c2cc(C)on2)c1=O | Rhinovirus | Serotype 86 |  | H1-HELA | cytopathic effect / XTT | inhibition | 0.211 µM | 90% |
| CO[C@@H]1[C@H](OC(=O)NC(=O)CCl)CC[C@]2(CO2)[C@H]1[C@@]1(C)O[C@@H]1CC=C(C)C | Encephalitozoon intestinalis |  |  | RK-13 |  | inhibition | 0.00001 µg/mL | 39.4% |
| CCO/N=C/c1ccc(OCCC2CCN(c3ccc(C)nn3)CC2)cc1 | Rhinovirus | 209 (ICAM-1 receptor group 39) |  | KB | neutral red | EC50 |  | 0.001 µM |
| COc1cc(Cc2cnc(N)nc2N)cc(OC)c1OCCCNc1ccc(S(=O)(=O)c2ccc(N)cc2)cc1 | Mycobacterium ulcerans | Isolate 842 |  |  |  | MIC |  | 1 µg/mL |
| CC1=CC(=O)c2c(O)cccc2C1=O | Encephalitozoon intestinalis |  |  | RK-13 |  | inhibition | 0.1 µg/mL | 37.9% |
| CN[C@@H]1[C@H](O[C@H]2[C@H](O[C@H]3[C@H](O)[C@@H](O)[C@H](N=C(N)N)[C@@H](O)[C@@H]3N=C(N)N)O[C@@H](C)[C@]2(O)C=O)O[C@@H](CO)[C@H](O)[C@H]1O | Klebsiella pneumoniae | ESBL-3967 |  |  | agar diffusion | zone | 250 µg/disc | 12 mm |
| Nc1ccnc2c1ncn2[C@H]1C=C[C@@H](OCP(=O)(O)O)O1 | Adenovirus | adenoid 6 (TYPE 2) |  |  | virus yield | EC90 |  | 7 µg/mL |
| CC(C)=CCN1c2cc(Cl)cc3[nH]c(=S)n(c23)C[C@@H]1C | HIV-1 |  | RT-L74V A98G | MT-4 |  | EC95 |  | 0.8 µM |
| COc1cc(Cc2cnc(N)nc2N)cc(OC)c1OC | Mycobacterium ulcerans | ATCC 19423 |  |  |  | MIC |  | >16 µg/mL |
| Nc1ncnc2c1ncn2C[C@H](CO)OCP(=O)(O)O | Adenovirus | adenoid 6 (TYPE 2) |  |  | virus yield | EC90 |  | 0.6 µg/mL |
| CCOC(=O)Nc1cc2c(c(N)n1)N=C(c1ccc(N=[N+]=[N-])cc1)CO2 | Encephalitozoon intestinalis |  |  | RK-13 |  | inhibition | 1 µg/mL | 85.5% |
| O=c1cnn([C@@H]2O[C@H](CO)[C@@H](O)[C@H]2O)c(=O)[nH]1 | West Nile virus | E101 |  | VERO | cytopathic effect | EC50 |  | 0.2 µg/mL |
| CCOC(=O)Nc1cc2c(c(N)n1)N=C(c1ccc3ccccc3c1)CS2 | Encephalitozoon intestinalis |  |  | RK-13 |  | inhibition | 10 µg/mL | 74.1% |
| CN(C)c1cc(NC(=O)CNC(C)(C)C)c(O)c2c1C[C@H]1C[C@H]3[C@H](N(C)C)C(=O)C(C(N)=O)=C(O)[C@@]3(O)C(=O)C1=C2O | Mycobacterium massiliense | X38 |  |  | broth dilution | MIC |  | 1 µg/mL |
| COc1ccc2cc3[n+](cc2c1OC)CCc1cc2c(cc1-3)OCO2 | Vittaforma corneae |  |  | RK-13 |  | inhibition | 0.1 µg/mL | 42.2% |
| C[C@H](Cc1ccc(O)c(O)c1)[C@@H](C)Cc1ccc(O)c(O)c1 | Candida albicans | CCC 127-2000 |  |  | broth dilution | MIC100 |  | 250 µg/mL |
| C[C@H]1c2cccc(O)c2C(O)=C2C(=O)[C@]3(O)C(O)=C(C(N)=O)C(=O)[C@@H](N(C)C)[C@@H]3[C@@H](O)[C@@H]21 | Mycobacterium bolletii |  |  |  | broth dilution | MIC |  | >128 µg/mL |
| O=C(Nc1ncc([N+](=O)[O-])s1)c1ccccc1O | Encephalitozoon intestinalis |  |  | RK-13 |  | inhibition | 0.01 µg/mL | 30% |

2 of the rows above, restated:

| SMILES | organism | strain or isolate | mutations | cell line | method | read-out | tested at | value |
|---|---|---|---|---|---|---|---|---|
| COc1cc(Cc2cnc(N)nc2N)cc(OC)c1OC | Mycobacterium ulcerans | ATCC 19423 |  |  |  | MIC |  | >16 µg/mL |
| CN(C)c1cc(NC(=O)CNC(C)(C)C)c(O)c2c1C[C@H]1C[C@H]3[C@H](N(C)C)C(=O)C(C(N)=O)=C(O)[C@@]3(O)C(=O)C1=C2O | Mycobacterium massiliense | X38 |  |  | broth dilution | MIC |  | 1 µg/mL |